Results on twelve molecules are retold here after the supplement of paper PMC9931576.

Human monoclonal antibodies against the spike receptor-binding domain (heavy:light variable regions). IC50 against pseudoviruses bearing the spike of naturally observed variants; lower = stronger; >10 µg/ml means not reached at the top dose. No active / inactive call. The stated detection limit is 0.0005 µg/ml; values near or below 0.001 µg/ml lie at the floor of the assay.

B1: BD56-665 (protein)
chain 1: LVESGGGVVQPGRSLRLSCATSGFPFSKYGMHWVRQAPGKGLEWVALEYYDGSNKYYADSVKGRFSVSRDNSKNTLYLQMNTLRPEDTAVYYCAKGGLYSSSWFGDYWGQGTLVIVSS
chain 2: DIQMTQSPSSLSASVGDRVTITCQASQDINYYLNWYQQKPGKAPKLLIYDASSLEAGVTSRYSGSGSGTDFTFTISSLQPEDIATYYCQQYDNVPPYTFGQGTKLEIK
B2: BD56-653 (protein)
chain 1: QVQLVQSGAEVKKPGASVKVSCKASGFTFSNYYVHWVRQAPGQGLEWLGLSNPSGGSSSYAQRFQGRVTVTRDTSTSTVYMELNSLTSEDTAVYFCARDEVGGYDAFDIWGQGTMVSVS
chain 2: SSVLTQPPSVSVAPGKTARITCGGDNIGGTSVHWYQQKPGQAPVLVVFDDSDRPSGIPERFSGSNSGNTATLTISRVEAGDEADYYCQVWDSISDQSYVFGTGTKVTVL
B3: BD56-668 (protein)
chain 1: EVQLVESGGGLVQPGGSLRLSCAASGFTFSSYDMHWVRQATGQGLEWVSTIGTDGDTYYADSVKGRFTISRENAKNSLFLQMNSLRAGDTAVYYCARVNYDSSGYYWYFDLWGRGTLVTVSS
chain 2: DIQMTQSPSSLSASVGDSVTITCRASQSISRYLNWYQQRPGQAPKFLIYAASNLQSGVPSRFRGSGSGTDFTLTISSLQPEDFATYYCQQSYSAPPWTFGQGTKVAMK
B4: BD56-650 (protein)
chain 1: QVQLMQSGAEVKKPGSSVKVSCKASGGTFRSYAISWVRQAPGQGLEWMGVIIPVFGTAHYAQKFQGRVAITADKSTSTAYMELSSLRSADTAVYYCAREGLGIVEEDPSTWEGVLDYWGQGTLVTVSS
chain 2: EIVLTQSPGTLSLSPGERATLSCRASQSVSSSSLAWYQQKPGQAPRLVIYGAASRATGIPDRFSGSGSGTDFTLTISRLEPEDFAVYYCQQYGSSPRLTFGGGTKVEIK
B5: BD56-664 (protein)
chain 1: EVQLVESGGGLVQPGRSLRLSCAASGFSFDNYGIHWVRQPPGKGLEWVAGISWNSNSVAYADSVKGRFTISRDNAKNSLYLQMNSLRPEDTAFYYCAKDIRPSYGDYFDYWGQGTLVTVSS
chain 2: SYVLTQPPSVSVAPGKTARISCGGNDIGSKGVHWYQQKPGQAPVLVIFYDNDRPSGIPERFSGSNSGNTATLTISRVEAGDEADYYCQVWGASSDHPYVFGTGTKVSVL
B6: BD56-666 (protein)
chain 1: QVQLVQSGAEVKKPGASVKISCKASGYTFSTYYMHWVRQAPGQGLEWMGIIYPSGGNTRYAQKFQGRVTMTRDTSTSTVYMELRNLRSEDTAVYYCAREVPPPLGNTWFDPWGQGTLVTVSS
chain 2: SYVLTQPSSVSVAPGKTARITCGGNDIGSKSVHWYQQKPGQAPVLVVYDDTDRPSGIPERFSGSNSGNTATLTISRVEAGDEADYYCQVWDGSGEPVVFGGGTKLSVL
B7: BD56-642 (protein)
chain 1: QVTLRESGPALVKPTQTLTLTCTFSGLSLSNTEMYVSWIRQPPGKGLEWLALIDWDDDKYYSTSLRTRLTISRDTSRNQVVLTMTDMDPMDTATYYCARSPSLHDTSGYYFQYYFDLWGQGALVTVSS
chain 2: EIVLTQSPGTLSLSPGERATLSCRASLSVSSSYLAWYQQKPGQAPRLLIYGASSRATGVPDRFSGSGSGTDFTLTVNRLDPEDFAVYYCQQYGGSPLTFGQGTKVEV
B8: BD56-644 (protein)
chain 1: EVHLVESGGGLVQPGGSLRLSCAASGFSFDDYAMHWVRQVPGKGLEWVSGISWNRNTIGYADSVKGRFTISRDNAKNSLYLQMNSLRPEDTALYYCAKDILVASNGDLFDYWGQGTLVTVSS
chain 2: SYVLTQPPSVSVAPGKTARITCGGDNIGSKSVHWYQQKPGQAPLLVIYDDSDRPSGIPERFSGSNSGNTATLTISRVEAGDEADYSCQVRDSSINHPYVFGTGTKVTVL
B9: BD56-649 (protein)
chain 1: QVQLVQSGAEVKKPGASVKVSCKASGYTFPSYTMHWVRQAPGQRLEWMGWINAGNGDTQYSQKFQGRVTITRDTSASIAYMELTRLRSEDTAVYYCATEVTQLAHLIDVWGQGTTVTVSS
chain 2: QSALTQPRSVSGSPGQSVTISCTGTSSDVGDYNYVSWYQEHPGKAPKLMIYDVSKRPSGVPDRFSGSKSGNTASLTISGLQAEDEADYYCCSYAGSYTYVFGTGTKVTVL
B10: BD56-646 (protein)
chain 1: EVQLVQFGAEVKKPGESLKISCKGSGYNFTSYWIGWVRQMPGKGLEWMGIIYPGDSDTRYSPSFQGQVTISADKSFSTAYLQWSSLQASDTAMYYCARLVSFDWFADYWGQGTLVTVSS
chain 2: DIVMTQTPLSLSVTPGQPASISCKSSQSLLHSDGTTSLFWYLQKPGQPPQLLIYGVSNRFSGVPDRFSGSGSGTDFTLKISRVEAEDVGVYYCMQNLLLLTWTFGQGTKVEIK
B11: BD56-654 (protein)
chain 1: EVQLVQSGAEVKKPGESLKISCKGSGYKFSSYWIGWVRQMPGKGLDWMGAIYPSDSDARYSPSFQGQVIMSVDKSISTAYLQWSSLKASDTALYYCTSQAWVCNGSNCYEYFQHWGQGTLVTVSS
chain 2: EIVLTQSPAILSLSPGERATLSCRASQSVSSHLAWYQQKLGQAPRLLIYDASNRAPGIPARFSGSGSGTDFTLTISSLEPEDFAVYYCLQRTNWPLFTFGPGTKLDIK
B12: BD56-660 (protein)
chain 1: QVTLRETGPALVKPTQTLTLTCTFSGFSLSTPGVCVSWIRQPPGKALEWLARIDWDDDKNYNTSLKTRLTISKDTSKNQVVLTMTNMDPVDTATYYCARIVIGGSDHPPAGFDYWGQGTLVTVSS
chain 2: DIQMTQSPSSLSAAVGDRVTITCRTSESIDNYLNWYQQKPGKAPKLLIYTASSLQSGVPSRFSGSGSGTDFTLTISSLQPEDFATYYCQQSFSPLYTFGQGTKLDVK

The target in one experiment is SARS-CoV-2 Omicron BA.1 spike pseudovirus. The experiment in a line: pseudovirus neutralization IC50; higher = weaker neutralization. On the procedure: (§1)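 Single-round VSV luciferase pseudovirus mixed with antibody dilutions for 1 h and put on Huh-7 cells for about a day; IC50 from the dose curve.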
As to B1, the “pseudovirus neutralization IC50” value is 8.01 µg/mL.

For the molecule B2, the “pseudovirus neutralization IC50” value was greater than 10 µg/mL.

For the molecule B3, the “pseudovirus neutralization IC50” value is greater than 10 µg/mL.

With B4, the “pseudovirus neutralization IC50” value is greater than 10 µg/mL.

For the molecule B5, the “pseudovirus neutralization IC50” value is greater than 10 µg/mL.

As to B6, the “pseudovirus neutralization IC50” value stood at 4.63 µg/mL.

As for B7, the “pseudovirus neutralization IC50” value is 2.76 µg/mL.

For the molecule B8, the “pseudovirus neutralization IC50” value came to 3.91 µg/mL.

As for B9, the “pseudovirus neutralization IC50” value is 0.47 µg/mL.

For the molecule B10, the “pseudovirus neutralization IC50” value came out at 0.301 µg/mL.

In the case of B11, the “pseudovirus neutralization IC50” value came to 1.87 µg/mL.

As for B12, the “pseudovirus neutralization IC50” value was 0.001 µg/mL.

The next experiment has as its target SARS-CoV-2 Omicron BA.2 spike pseudovirus. The experiment is described as above. On the procedure:
as §1
For B1, the “pseudovirus neutralization IC50” value was found to be 6.53 µg/mL.

For B2, the “pseudovirus neutralization IC50” value was greater than 10 µg/mL.

For the molecule B3, the “pseudovirus neutralization IC50” value was greater than 10 µg/mL.

On to B4, for which the “pseudovirus neutralization IC50” value is greater than 10 µg/mL.

As for B5, the “pseudovirus neutralization IC50” value was greater than 10 µg/mL.

With B6, the “pseudovirus neutralization IC50” value turned out to be 7.56 µg/mL.

B7: the “pseudovirus neutralization IC50” value is 1.99 µg/mL.

On to B8, for which the “pseudovirus neutralization IC50” value is 3.46 µg/mL.

Take B9: the “pseudovirus neutralization IC50” value was found to be 0.339 µg/mL.

In the case of B10, the “pseudovirus neutralization IC50” value came out at 0.229 µg/mL.

Take B11: the “pseudovirus neutralization IC50” value was 3.82 µg/mL.

Take B12: the “pseudovirus neutralization IC50” value was 0.000994 µg/mL.

The target of another experiment is SARS-CoV-2 Omicron BA.2.75 spike pseudovirus. Described as above. On the procedure:
as §1
On to B1, for which the “pseudovirus neutralization IC50” value amounted to 4.53 µg/mL.

With B2, the “pseudovirus neutralization IC50” value was greater than 10 µg/mL.

For B3, the “pseudovirus neutralization IC50” value is greater than 10 µg/mL.

With B4, the “pseudovirus neutralization IC50” value was greater than 10 µg/mL.

On to B5, for which the “pseudovirus neutralization IC50” value is greater than 10 µg/mL.

Take B6: the “pseudovirus neutralization IC50” value worked out at 3.78 µg/mL.

Regarding B7, the “pseudovirus neutralization IC50” value is 2.16 µg/mL.

With B8, the “pseudovirus neutralization IC50” value was 3.97 µg/mL.

On to B9, for which the “pseudovirus neutralization IC50” value turned out to be 0.313 µg/mL.

In the case of B10, the “pseudovirus neutralization IC50” value came to 0.261 µg/mL.

In the case of B11, the “pseudovirus neutralization IC50” value is 5.08 µg/mL.

As to B12, the “pseudovirus neutralization IC50” value worked out at 0.000479 µg/mL.

The next experiment deals with SARS-CoV-2 Omicron BA.5 spike pseudovirus. The description is as above. Here is the method:
as §1
As to B1, the “pseudovirus neutralization IC50” value worked out at 6.99 µg/mL.

For the molecule B2, the “pseudovirus neutralization IC50” value is greater than 10 µg/mL.

As for B3, the “pseudovirus neutralization IC50” value was greater than 10 µg/mL.

As to B4, the “pseudovirus neutralization IC50” value was greater than 10 µg/mL.

Turning to B5, the “pseudovirus neutralization IC50” value was greater than 10 µg/mL.

On to B6, for which the “pseudovirus neutralization IC50” value was found to be 4.3 µg/mL.

Consider B7, for which the “pseudovirus neutralization IC50” value was 2.34 µg/mL.

With B8, the “pseudovirus neutralization IC50” value was greater than 10 µg/mL.

As for B9, the “pseudovirus neutralization IC50” value amounted to 7.99 µg/mL.

For the molecule B10, the “pseudovirus neutralization IC50” value was found to be 0.212 µg/mL.

As to B11, the “pseudovirus neutralization IC50” value was 3.19 µg/mL.

As to B12, the “pseudovirus neutralization IC50” value came to 0.000922 µg/mL.

In another experiment the target is SARS-CoV-2 Omicron BQ.1.1 spike pseudovirus. The experiment is described as above. Here is the method: as §1
Take B1: the “pseudovirus neutralization IC50” value was greater than 10 µg/mL.

Turning to B2, the “pseudovirus neutralization IC50” value was greater than 10 µg/mL.

With B3, the “pseudovirus neutralization IC50” value was greater than 10 µg/mL.

Regarding B4, the “pseudovirus neutralization IC50” value was greater than 10 µg/mL.

As to B5, the “pseudovirus neutralization IC50” value is greater than 10 µg/mL.

Turning to B6, the “pseudovirus neutralization IC50” value was found to be 7.05 µg/mL.

For the molecule B7, the “pseudovirus neutralization IC50” value is 3.23 µg/mL.

Take B8: the “pseudovirus neutralization IC50” value was greater than 10 µg/mL.

Turning to B9, the “pseudovirus neutralization IC50” value was greater than 10 µg/mL.

Turning to B10, the “pseudovirus neutralization IC50” value was greater than 10 µg/mL.

B11: the “pseudovirus neutralization IC50” value is greater than 10 µg/mL.

With B12, the “pseudovirus neutralization IC50” value was greater than 10 µg/mL.

The target of the next experiment is SARS-CoV-2 Omicron XBB spike pseudovirus. The experiment is described as above. Here is the method:
as §1
For B1, the “pseudovirus neutralization IC50” value was greater than 10 µg/mL.

As for B2, the “pseudovirus neutralization IC50” value is greater than 10 µg/mL.

On to B3, for which the “pseudovirus neutralization IC50” value is greater than 10 µg/mL.

As to B4, the “pseudovirus neutralization IC50” value was greater than 10 µg/mL.

In the case of B5, the “pseudovirus neutralization IC50” value is greater than 10 µg/mL.

Consider B6, for which the “pseudovirus neutralization IC50” value was 6.62 µg/mL.

Take B7: the “pseudovirus neutralization IC50” value worked out at 3.21 µg/mL.

For B8, the “pseudovirus neutralization IC50” value is greater than 10 µg/mL.

Take B9: the “pseudovirus neutralization IC50” value was greater than 10 µg/mL.

B10: the “pseudovirus neutralization IC50” value was greater than 10 µg/mL.

Turning to B11, the “pseudovirus neutralization IC50” value worked out at 9.45 µg/mL.

Turning to B12, the “pseudovirus neutralization IC50” value was greater than 10 µg/mL.

The target of a further experiment is SARS-CoV-2 early D614G spike pseudovirus. Described as above. Here is the method:
as §1
In the case of B1, the “pseudovirus neutralization IC50” value is greater than 10 µg/mL.

Turning to B2, the “pseudovirus neutralization IC50” value was greater than 10 µg/mL.

Regarding B3, the “pseudovirus neutralization IC50” value amounted to 3.33 µg/mL.

Regarding B4, the “pseudovirus neutralization IC50” value was greater than 10 µg/mL.

For the molecule B5, the “pseudovirus neutralization IC50” value was greater than 10 µg/mL.

As for B6, the “pseudovirus neutralization IC50” value stood at 8.42 µg/mL.

Consider B7, for which the “pseudovirus neutralization IC50” value was determined as 3.47 µg/mL.

Consider B8, for which the “pseudovirus neutralization IC50” value was greater than 10 µg/mL.

On to B9, for which the “pseudovirus neutralization IC50” value turned out to be 0.205 µg/mL.

For the molecule B10, the “pseudovirus neutralization IC50” value came out at 0.00656 µg/mL.

Consider B11, for which the “pseudovirus neutralization IC50” value amounted to 7.07 µg/mL.

With B12, the “pseudovirus neutralization IC50” value was determined as 0.369 µg/mL.
